Pooled drug test results. Numbers come from NIAID ChemDB, via PubChem.

All rows: enzyme or target tests; agent: Toxoplasma gondii; target: Dihydrofolate reductase; endpoint: IC50

Rows are shuffled and stem from different studies. ICn is the concentration giving n% inhibition.

SMILES,result
Nc1nc(N)c2cc3c(ccc4ccccc43)nc2n1,0.3 µM
COc1cc(C(C)Cc2coc3nc(N)nc(N)c23)cc(OC)c1OC,27 µM
COc1ccc(OC)c(CCc2cc3c(=O)[nH]c(N)nc3[nH]2)c1,>30 µM
C/C(=C\c1coc2nc(N)nc(N)c12)c1cc(Cl)ccc1Cl,10 µM
Nc1nc(N)c2c(n1)CC1CC(=O)CC2C1,34 µM
Nc1nc2[nH]c(CCc3ccccc3Cl)cc2c(=O)[nH]1,34 µM
CC(C)(C)C1CCc2nc(N)nc(N)c2C1,0.018 µM
C/C(=C/c1coc2nc(N)nc(N)c12)c1cc(Cl)c(Cl)c(Cl)c1,27 µM
CC(Cc1c[nH]c2nc(N)nc(N)c12)c1ccc2c(c1)Cc1ccccc1-2,0.0483 µM
Nc1nc(N)c2cc(COC(=O)c3cccs3)ccc2n1,0.13 µM
Nc1nc(N)c2c(n1)-c1ccccc1C2,20 µM
COc1ccc2ccc3cc4c(N)nc(N)nc4nc3c2c1,1.85 µM
CC(Cc1c[nH]c2nc(N)nc(N)c12)c1ccc(-c2ccccc2)cc1,0.0717 µM
Nc1nc(N)c2cc(COC(=O)c3cccc(-c4ccccc4)c3)ccc2n1,0.18 µM
Nc1nc2[nH]c(CCc3ccc4ccccc4c3)cc2c(=O)[nH]1,33 µM
Nc1nc(N)c2cc(COC(=O)c3ccccc3Cc3ccccc3)ccc2n1,0.31 µM
Nc1nc2[nH]c(CCc3ccccn3)cc2c(=O)[nH]1,>38 µM
Nc1nc(N)c2cc(COC(=O)c3cccc(I)c3)ccc2n1,0.33 µM
Nc1nc(N)c2cc3ccc4ccccc4c3nc2n1,0.46 µM